Experimental data published in the CheMixHub viscosity set.
± gives the uncertainty stated by the source.

Test: xn = mol fraction of the nth substance listed

CCCCOP(=O)(OCCCC)OCCCC + Cc1ccccc1
viscosity [mPa·s]
Details | 303.15 K | 303.2 K | 308.15 K | 313.15 K | 318.15 K | 323.15 K
100 kPa, x1 = 0.0488 | 0.619 ± 0.012 | – | 0.581 ± 0.012 | 0.551 ± 0.011 | 0.521 ± 0.01 | 0.493 ± 0.01
100 kPa, x1 = 0.08 | – | 0.6417 ± 0.026 | – | – | – | –
100 kPa, x1 = 0.1002 | 0.738 ± 0.014 | – | 0.692 ± 0.013 | 0.651 ± 0.012 | 0.61 ± 0.011 | 0.583 ± 0.011
100 kPa, x1 = 0.1498 | 0.858 ± 0.015 | – | 0.801 ± 0.014 | 0.749 ± 0.013 | 0.699 ± 0.012 | 0.667 ± 0.011
100 kPa, x1 = 0.19 | – | 0.9502 ± 0.039 | – | – | – | –
100 kPa, x1 = 0.2021 | 0.988 ± 0.016 | – | 0.917 ± 0.015 | 0.854 ± 0.014 | 0.793 ± 0.013 | 0.751 ± 0.012
100 kPa, x1 = 0.2499 | 1.109 ± 0.017 | – | 1.024 ± 0.016 | 0.95 ± 0.015 | 0.879 ± 0.014 | 0.825 ± 0.013
100 kPa, x1 = 0.2998 | 1.235 ± 0.018 | – | 1.134 ± 0.017 | 1.049 ± 0.016 | 0.969 ± 0.014 | 0.9 ± 0.013
100 kPa, x1 = 0.34 | – | 1.133 ± 0.047 | – | – | – | –
100 kPa, x1 = 0.3495 | 1.36 ± 0.02 | – | 1.244 ± 0.018 | 1.147 ± 0.016 | 1.056 ± 0.015 | 0.972 ± 0.014
100 kPa, x1 = 0.3995 | 1.485 ± 0.021 | – | 1.352 ± 0.019 | 1.244 ± 0.017 | 1.142 ± 0.016 | 1.044 ± 0.015
100 kPa, x1 = 0.4496 | 1.608 ± 0.022 | – | 1.46 ± 0.02 | 1.338 ± 0.018 | 1.225 ± 0.017 | 1.114 ± 0.015
100 kPa, x1 = 0.4998 | 1.728 ± 0.023 | – | 1.566 ± 0.021 | 1.431 ± 0.019 | 1.307 ± 0.018 | 1.183 ± 0.016
100 kPa, x1 = 0.5504 | 1.848 ± 0.024 | – | 1.672 ± 0.022 | 1.523 ± 0.02 | 1.387 ± 0.018 | 1.252 ± 0.017
100 kPa, x1 = 0.58 | – | 1.599 ± 0.068 | – | – | – | –
100 kPa, x1 = 0.5999 | 1.963 ± 0.026 | – | 1.774 ± 0.023 | 1.612 ± 0.021 | 1.464 ± 0.019 | 1.319 ± 0.017
100 kPa, x1 = 0.6488 | 2.076 ± 0.027 | – | 1.874 ± 0.024 | 1.698 ± 0.022 | 1.539 ± 0.02 | 1.386 ± 0.018
100 kPa, x1 = 0.7 | 2.194 ± 0.028 | – | 1.978 ± 0.025 | 1.788 ± 0.023 | 1.617 ± 0.021 | 1.456 ± 0.019
100 kPa, x1 = 0.7499 | 2.31 ± 0.029 | – | 2.08 ± 0.026 | 1.877 ± 0.024 | 1.694 ± 0.022 | 1.526 ± 0.02
100 kPa, x1 = 0.8 | 2.43 ± 0.031 | – | 2.184 ± 0.028 | 1.968 ± 0.025 | 1.774 ± 0.023 | 1.597 ± 0.02
100 kPa, x1 = 0.85 | 2.554 ± 0.032 | – | 2.289 ± 0.029 | 2.062 ± 0.026 | 1.857 ± 0.024 | 1.67 ± 0.021
100 kPa, x1 = 0.9 | 2.685 ± 0.034 | – | 2.398 ± 0.031 | 2.161 ± 0.028 | 1.946 ± 0.025 | 1.745 ± 0.022
101 kPa, x1 = 0.103 | 0.779 ± 0.005 | – | 0.741 ± 0.005 | 0.705 ± 0.005 | 0.673 ± 0.005 | –
101 kPa, x1 = 0.2 | 0.945 ± 0.007 | – | 0.893 ± 0.006 | 0.835 ± 0.006 | 0.794 ± 0.005 | –
101 kPa, x1 = 0.4 | 1.468 ± 0.011 | – | 1.35 ± 0.01 | 1.254 ± 0.009 | 1.167 ± 0.009 | –
101 kPa, x1 = 0.6 | 1.97 ± 0.017 | – | 1.801 ± 0.016 | 1.661 ± 0.014 | 1.536 ± 0.013 | –
101 kPa, x1 = 0.8 | 2.418 ± 0.024 | – | 2.189 ± 0.022 | 2 ± 0.02 | 1.83 ± 0.018 | –
101 kPa, x1 = 0.9 | 2.674 ± 0.029 | – | 2.419 ± 0.026 | 2.206 ± 0.024 | 2.009 ± 0.022 | –
101.33 kPa, x2 = 0.1 | 2.575 ± 0.062 | – | 2.322 ± 0.056 | 2.11 ± 0.051 | 1.918 ± 0.047 | –
101.33 kPa, x2 = 0.2 | 2.323 ± 0.056 | – | 2.095 ± 0.051 | 1.915 ± 0.047 | 1.74 ± 0.043 | –
101.33 kPa, x2 = 0.4 | 1.87 ± 0.046 | – | 1.67 ± 0.041 | 1.563 ± 0.039 | 1.44 ± 0.036 | –
101.33 kPa, x2 = 0.6 | 1.366 ± 0.034 | – | 1.25 ± 0.032 | 1.16 ± 0.03 | 1.075 ± 0.028 | –
101.33 kPa, x2 = 0.8 | 0.854 ± 0.023 | – | 0.805 ± 0.021 | 0.75 ± 0.02 | 0.709 ± 0.019 | –
101.33 kPa, x2 = 0.897 | 0.69 ± 0.019 | – | 0.655 ± 0.018 | 0.62 ± 0.017 | 0.59 ± 0.017 | –
